According to patent US5552382A (priority 1994, dated 1996):

Test system: IIIB strain of HIV
Type: cell-based
Method: The following test procedure was employed.
In a classical virology assay aimed at testing the antiviral activity of a drug, the virus is added in the presence of a drug to target cells for the determined period of inoculation time, e.g., 1 hour, and then nonadsorbed virus is washed away and inoculated cells are exposed again to a fresh drug. After several days, a period corresponding to the replication cycle of the virus, the dose-effect of the drug is tested by measuring the quantity of newly-synthesized virus in the culture supernates of inoculated cells. But this strategy is not truly representative of the in vivo situation. It is clear that in a real-life situation the virus is not "flushed" from a human body prior to drug administration. […] In the present assay, virus, drug and cells were left without washing in the culture until tested for virus production 3 days later. This period of time presents one full cycle of HIV replication, Dimitrov et al., J. Virol. 67:2182-90, 1993. […]
p24 ELISA. Reduction of productive infection was evaluated by a commercial ELISA kit for viral core gag p24 product according to the manufacturer's instructions (Coulter, Hialeah, Fla.) as follows. […] The amount of captured p24 was measured by comparing the optical density (450 nm) of peroxidase substrate with supplied standards containing known amounts of p24. […]

Compound | TI (therapeutic index), ratio between CC100 and IC100
Cc1cc2c(C(C)C)c(O)c(O)c(C=O)c2c(O)c1-c1c(C)cc2c(C(C)C)c(O)c(O)c(C=O)c2c1O [Gossypol, gossypol] | 1
nonoxynol-9 | 1
